Experimental data: publication PMC5724010 (The Journal of Biological Chemistry, 2017)

Amino acid sequences for entries named in this document (tags omitted). Residues count along the entry.
UniProt Q8R6F6, 20-431 limits assumed: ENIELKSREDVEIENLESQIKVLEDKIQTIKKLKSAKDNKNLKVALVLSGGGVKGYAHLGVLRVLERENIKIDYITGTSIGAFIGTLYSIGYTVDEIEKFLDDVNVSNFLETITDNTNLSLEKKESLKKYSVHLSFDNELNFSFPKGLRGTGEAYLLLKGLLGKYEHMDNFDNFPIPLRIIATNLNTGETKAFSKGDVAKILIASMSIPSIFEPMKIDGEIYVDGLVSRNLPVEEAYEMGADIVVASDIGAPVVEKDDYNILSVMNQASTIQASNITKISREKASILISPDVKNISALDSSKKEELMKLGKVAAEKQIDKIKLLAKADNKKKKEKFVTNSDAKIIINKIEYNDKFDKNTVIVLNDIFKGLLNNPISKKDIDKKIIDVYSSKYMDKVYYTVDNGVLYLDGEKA

Columns and labels:
[1] = tested on: FplA(20–760) on the surface of E. coli; test: Enzymatic activity of full-length FplA on the surface of live E. coli with 4-MuH; conditions: 10 μM MAFP, 60 min preincubation; 10 μM 4-MuH, 37 °C, 30 min
Procedure: Using the expression vector pDJSVT86 that is described under “Cloning of FplA constructs for expression in E. coli,” we cloned FplA(20–760) into the vector at the 3′ end of the OmpA(1–27)-His6 signal sequence (pDJSVT88). This construct was expressed in LOBSTR RIL ([62]) E. coli in Studier autoinduction medium at 37 °C for 20 h with 250-rpm shaking. The empty vector pDJSVT86 was used as a negative control for FplA expression for both microscopy and enzymatic assays.
For the enzymatic activity assay, stationary phase bacteria from overnight expressions were washed in PBS, pH 7.5, and spun down at 5000 × g for 5 min, followed by resuspension of the bacteria at an A600 = 0.2 in PBS, pH 7.5.

FplA(20–431) = FplA(20–431) (Fusobacterium nucleatum subsp. nucleatum, UniProt Q8R6F6); test: IC50 assays of FplA inhibitors with 4-MuH substrate; format: biochemical, F. nucleatum 25586; conditions: 1 nM FplA(20–431), 10 μM 4-MuH, pH 8.5, 26 °C, 30 min

Structure (SMILES): CCCCC/C=C/C/C=C/C/C=C/C/C=C/CCCCP(=O)(F)OC (centres unmarked)
- Effect on 4-MuH cleavage (fluorescence) by whole live E. coli expressing FplA [1]: inhibited
- IC50 (FplA(20–431)): 11 nM
